Experimental data published in patent US20110033498.

Legend:
[1] = biological target: K63-linked poly-ubiquitin chains, P0CG47
[2] = biological target: 6His-tagged mouse ISG15 (6HismISG15) conjugated to cellular proteins in transfected 293T cells, Q64339
[3] = biological target: poly-SUMO-2 chains (2-8), P61956
[4] = biological target: K48-linked poly-ubiquitin chains Ub2-7, P0CG47

B1: CCHFV-L(1-169) recombinant protein (untagged, purified from E. coli) (protein)
chain: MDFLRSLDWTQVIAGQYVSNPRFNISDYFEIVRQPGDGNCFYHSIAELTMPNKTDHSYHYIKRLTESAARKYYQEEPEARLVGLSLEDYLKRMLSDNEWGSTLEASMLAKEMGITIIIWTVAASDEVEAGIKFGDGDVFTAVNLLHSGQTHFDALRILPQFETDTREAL
in vitro hydrolysis of polyubiquitin chains, SDS-PAGE and Coomassie staining [1]: cleaved both K48 and K63-linked ubiquitin chains into monomers | in vitro deISGylation of Ni-NTA enriched His-ISG15 conjugates, Western blot [2]: L(1-169) was able to deconjugate ISGylated proteins | in vitro processing of pro-Nedd8, Coomassie staining (pro-Nedd8, Q15843): L(1-169) hydrolyzed pro-Nedd8 into a mature form | in vitro processing of pro-ISG15, SDS-PAGE and Coomassie staining (pro-ISG15): L(1-169) processed a pro-ISG15 protein into its mature form | in vitro hydrolysis of poly-SUMO-3 chains, anti-SUMO-3 Western blot (poly-SUMO-3 chains (2-8)): An identical result was obtained when poly-SUMO-3(2-8) chains were tested | in vitro hydrolysis of poly-SUMO-2 chains, SDS-PAGE and Coomassie staining [3]: the core OTU domain was not able to hydrolyze the branched poly-SUMO-2 chains | in vitro hydrolysis of polyubiquitin chains, SDS-PAGE and Coomassie staining [4]: cleaved both K48 and K63-linked ubiquitin chains into monomers
